Pooled drug test results. Numbers come from NIAID ChemDB, via PubChem.

Shared fields: whole-cell or culture tests; species: Vaccinia virus; read-out: EC50

An empty or dashed field is not shown. ECn: concentration that inhibits the pathogen or its effect by n%. Lines come from different laboratories, so protocols vary.

structure,strain or isolate,cells,value
O=S(=O)(O)c1c2ccccc2c(-c2c3nc(c(-c4c5ccccc5c(S(=O)(=O)O)c5ccccc45)c4ccc([nH]4)c(-c4c5ccccc5c(S(=O)(=O)O)c5ccccc45)c4nc(c(-c5c6ccccc6c(S(=O)(=O)O)c6ccccc56)c5ccc2[nH]5)C=C4)C=C3)c2ccccc12,IHD-J (EEV),BSC-40,0.55 µg/mL
CO[C@@H]1[C@@H](OC(N)=O)[C@@H](O)[C@H](Oc2ccc3c(O)c(NC(=O)c4ccc(O)c(CC=C(C)C)c4)c(=O)oc3c2C)OC1(C)C,Lister,HeLa,25 µg/mL
Nc1nc(N)c2ncn(C[C@H](CF)OCP(=O)(O)O)c2n1,,E6SM,>600 µM
O=c1c2ncn(COC(CO)CO)c2[nH]c2nccn12,,,400 µg/mL
CCc1cn([C@H]2C[C@H](O)[C@@H](CO)O2)c(=O)[nH]c1=O,,HSF,2.7 µg/mL
Nc1nc(=O)n([C@H]2C[C@H](O)[C@@H](CO)O2)cc1/C=C/Br,,Primary rabbit kidney cells,200 µg/mL
COC(=O)[C@]1(C)CCC[C@]2(C)c3cc(Br)c4nc[nH]c4c3CCC12,,E6SM,>4 µg/mL
C[C@@H](Cn1cnc2c(=O)[nH]c(N)nc21)OCP(=O)(O)O,,E6SM,≥600 µM
COC(=O)[C@]1(C)CCC[C@]2(C)c3ccc4nc(-c5ccccc5)c(-c5ccccc5)nc4c3CCC12,,E6SM,>4 µg/mL
CCc1cn([C@H]2C[C@H](O)[C@@H](COP(=O)(O)O)O2)c(=O)[nH]c1=O,,BSC-1,41 µg/mL
CC(=O)OCCOCn1cnc2c(=O)n3cc(-c4ccc5ccccc5c4)[nH]c3nc21,,,>16 µg/mL
Nc1ncnc2c1ncn2C[C@@H](CF)OCP(=O)(O)O,,E6SM,1312 µM
Cn1cc(NC(=O)c2cc(NC(=O)c3cc([N+](=O)[O-])cn3C)cn2C)cc1C(=O)NCCC(=N)N,Noguchi,BSC-1,>200 µg/mL
O=c1c2ncn(COCCO)c2nc2[nH]c(-c3ccccc3)c(-c3ccc(C(c4ccccc4)c4ccccc4)cc3)n12,,,>16 µg/mL
Nc1nc(N)c2ncn(C[C@H](CO)OCP(=O)(O)O)c2n1,,E6SM,63 µM
O=c1c2ncn(COC(CO)CO)c2nc2[nH]c(-c3ccccc3)cn12,,,>90 µg/mL
COC(=O)[C@]1(C)CCC[C@]2(C)c3ccc4nc5c(nc4c3CCC12)CCCC5,,E6SM,>4 µg/mL
O=c1c2ncn(COCCO)c2[nH]c2ncc(CO)n12,,,>3.2 µg/mL
COC(=O)[C@]1(C)CCC[C@]2(C)c3cc(Br)c4nc(C)[nH]c4c3CCC12,,E6SM,>4 µg/mL
Cn1cc(NC(=O)c2cc(NC(=O)c3cc(NC=O)cn3C)cn2C)cc1C(=O)NCCC(=N)N,Noguchi,BSC-1,<10 µg/mL